# Reference: patent publication US11857581B2, “Antiviral methods and compositions comprising probiotic bacterial molecules” (priority 2013, dated 2024)
# System: E. coli O157:H7 strain VS94
smiles,measurement,value
"CC(C)NCC(O)COc1cccc2ccccc12 (stereo not drawn) [β-blocker, propanolol]",% Adherence,22%
